Compound potency records, mixed from different reports. Data source: NIAID ChemDB in PubChem.

Common to all: tests in culture; species: HIV-1; read-out: inhibition

Inhibition is in % at the dose shown (toxicity tests: loss of growth or viability). Two numbers with a dash give a range or band. An empty or dashed field is not shown. Rows are shuffled and stem from different studies.

| compound | conditions | tested at | strain or isolate | cell line | method | value |
|---|---|---|---|---|---|---|
| Cc1nc(NC(=O)NCCc2ccccc2)sc1C |  | 10 µg/mL |  | MT-4 | cytopathic effect / XTT | 85–88% |
| CCCCCCCCCCCCCCCCOP(=O)(OC[C@H]1OC(O)[C@@H](O)[C@@H](O)[C@@H]1O)OC[C@H]1O[C@@H](n2cc(C)c(=O)[nH]c2=O)C[C@@H]1N=[N+]=[N-] | 26 d | 1 µM | LAV-Bru | CEM | RT activity | 0% |
| CC(=O)Oc1cccc(C(=O)N2CCN(C(=O)C(=O)c3c[nH]c4cccc(F)c34)CC2)c1 |  | 10 µM |  | HeLa + HELA CD4+/CCR5 | luciferase | >98% |
| NS(=O)(=O)c1ccc(NC(=O)NCCc2ccccc2)cc1 |  | 1 µg/mL |  | MT-4 | cytopathic effect / XTT | 0% |
| Cc1ccc(-c2ccc3c(c2)C=C(C(=O)Nc2ccc(C[N+](C)(C)C4CCOCC4)cc2)CCC3)cc1 |  | 1 µM | CM4 CLADE C | PBMC | p24 | 99.6% |
| N#Cc1csc(NC(=O)NCCc2ccccc2)n1 |  | 0.1 µg/mL |  | MT-4 | RT activity | 99% |
| C[C@H]1[C@H](O)[C@@H](C)/C=C/C=C/C=C/C=C/C=C/C=C/C=C/[C@H](O[C@@H]2O[C@H](C)[C@@H](O)[C@H](N)[C@@H]2O)C[C@@H]2O[C@](O)(C[C@@H](O)C[C@@H](O)CC[C@H](O)[C@@H](O)C[C@@H](O)CC(=O)O[C@H]1C)C[C@H](O)[C@H]2C(=O)O |  | 1.6 µM | 93BR020 CLADE F R5/X4 (SI) | PBMC | p24 / RT activity | 90% |
| CCCCN1C(=O)[C@@H](Cc2ccccc2)NC1=S |  | 10 µg/mL |  | MT-4 | RT activity | 9% |
| CCCCCCCCCCCCCCCCOP(=O)(OCCO[C@@H]1O[C@H](CO)[C@@H](O)[C@H](O)[C@@H]1O)OC[C@H]1O[C@@H](n2cc(C)c(=O)[nH]c2=O)C[C@@H]1N=[N+]=[N-] | 7 d | 1 µM | LAV-Bru | PBL | RT activity | 0% |
| CCOC(=O)C1CN(C(=O)c2ccccc2)CCN1C(=O)C(=O)c1c[nH]c2c(C(=O)OC)cccc12 |  | 10 µM |  | HeLa + HELA CD4+/CCR5 | luciferase | 86% |
| Cc1cn([C@H]2C[C@H](N=[N+]=[N-])[C@@H](COP(=O)(O)OCCO[C@H]3O[C@H](CO)[C@@H](O)[C@H](O)[C@@H]3O)O2)c(=O)[nH]c1=O | 15 d | 5 µM | LAV-Bru | CEM | RT activity | 96% |
| O=C(C(=O)N1CCN(C(=O)c2ccccc2)CC1)c1c[nH]c2c(F)c(F)c(F)c(F)c12 |  | 10 µM |  | HeLa + HELA CD4+/CCR5 | luciferase | >98% |
| CC(C)[C@H](NC(=O)[C@H](CO)NC(=O)[C@@H](N)CS)C(=O)N[C@H](C(=O)N[C@@H](CS)C(=O)NCC(=O)O)[C@@H](C)O |  | 0.132 µM | BaL | PBMC(PHA STIM.) + PBMC | p24 | 0% |
| Cc1cccc2sc(NC(=O)NCCc3ccccc3)nc12 |  | 100 µg/mL |  | MT-4 | cytopathic effect / XTT | 50% |
| O=C(C(=O)N1CCN(C(=O)c2ccccc2)CC1)c1c[nH]c2ccccc12 |  | 10 µM | BRU | MT-2 | RT activity | >98% |
| CC1(C)[C@@H](O[C@H]2O[C@H](C(=O)O)[C@@H](O)[C@H](O)[C@H]2O[C@@H]2O[C@H](C(=O)O)[C@@H](O)[C@H](O)[C@H]2O)CC[C@]2(C)[C@H]3C(=O)C=C4[C@@H]5C[C@@](C)(C(=O)O)CC[C@]5(C)CC[C@@]4(C)[C@]3(C)CC[C@@H]12 |  | 600 µM | IIIB | MT-4 | plaque count | 100% |
| COc1ccc(Cl)c2[nH]cc(C(=O)C(=O)N3CCN(C(=O)c4cccc(N)c4)C[C@H]3C)c12 |  | 10 µM |  | HeLa + HELA CD4+/CCR5 | luciferase | >98% |
| CC(C)[C@H](NC(=O)[C@H](CO)NC(=O)[C@H](CS)NC(=O)CCC(=O)NCCCOCCOCCCN)C(=O)N[C@H](C(=O)N[C@@H](CS)C(=O)NCC(=O)O)[C@@H](C)O |  | 0.66 µM | IIIB | PBMC(PHA STIM.) + PBMC | p24 | 100% |
| O=C(C(=O)N1CCN(C(=O)c2ccc(F)c(F)c2)CC1)c1c[nH]c2ccccc12 |  | 10 µM | BRU | MT-2 | RT activity | 32.7% |
| COC(=O)C(=O)c1csc(NC(=O)NCCc2ccccc2)n1 |  | 100 µg/mL |  | MT-4 | cytopathic effect / XTT | 0% |
| COc1ccc2c(C(=O)C(=O)N3CCN(C(=O)c4ccccc4)CC3)c[nH]c2c1 |  | 10 µM | BRU | MT-2 | RT activity | 96.4% |
| O=C1[C@@H](Cc2ccc(O)cc2)NC(=S)N1c1ccccc1 |  | 1 µg/mL |  | MT-4 | cytopathic effect / XTT | 4–44% |

For reference, 2 entries again:

compound,conditions,tested at,strain or isolate,cell line,method,value
C[C@H]1[C@H](O)[C@@H](C)/C=C/C=C/C=C/C=C/C=C/C=C/C=C/[C@H](O[C@@H]2O[C@H](C)[C@@H](O)[C@H](N)[C@@H]2O)C[C@@H]2O[C@](O)(C[C@@H](O)C[C@@H](O)CC[C@H](O)[C@@H](O)C[C@@H](O)CC(=O)O[C@H]1C)C[C@H](O)[C@H]2C(=O)O,,1.6 µM,93BR020 CLADE F R5/X4 (SI),PBMC,p24 / RT activity,90%
Cc1ccc(-c2ccc3c(c2)C=C(C(=O)Nc2ccc(C[N+](C)(C)C4CCOCC4)cc2)CCC3)cc1,,1 µM,CM4 CLADE C,PBMC,p24,99.6%